Measurements from article PMC12679539, “Synthesis and evaluation of nitroheterocyclic aromatic adamantane amides with trypanocidal activity. Part II” (RSC Medicinal Chemistry, 2025).

Test system: T. cruzi epimastigotes
Test: Activity against Trypanosoma cruzi epimastigotes (Alamar Blue growth inhibition)
Format: cell-based, Trypanosoma cruzi (strain CL Brener)
Settings: ratio of IC50 values obtained with L6 cells and T. cruzi epimastigotes
Description: Trypanocidal activity was assessed by growing parasites in microtiter plates in the presence of various drug concentrations. […] The plates were incubated for 4 days at 28 °C and 20 μL Alamar Blue (Biosource UK Ltd) was then added to each well. After an additional 3 days incubation, the fluorescence was determined using a Gemini fluorescent plate reader (Molecular Devices). Inhibition of growth was calculated by comparison with control values and IC50 and IC90 values were determined in triplicate using linear regression analysis.

CC1CS(=O)(=O)CCN1/N=C/c1ccc([N+](=O)[O-])o1 (stereo not shown) [Nfx, nifurtimox, reference compound]
S.I. (epimastigotes) IC50/Tc IC50: 10
